Compound potency records, mixed from different reports. Data source: NIAID ChemDB in PubChem.

Common to all: whole-cell or culture tests; agent: Mycobacterium tuberculosis

Inhibition is in % at the dose shown (toxicity tests: loss of growth or viability). A number after MIC or MFC names an inhibition level or a share of isolates. MIC bound: limit read from a one-dose screen. ECn: concentration that inhibits the pathogen or its effect by n%. Two numbers with a dash give a range or band. Blank or dashed fields: not listed here. Lines come from different laboratories, so protocols vary.

SMILES	tested at	strain or isolate	mutations	setting	read-out	read by	value
CN1C(NNC(=O)c2ccc(Cl)nc2)=NS(=O)(=O)c2ccccc21	-	H37Rv (ATCC 27294)	-	-	MIC	-	>16 µg/mL
COC(=O)c1nc2[nH]n(-c3ccccc3)c(=O)c2c(C(=O)OC)c1C(C)C(=O)c1ccc(Cl)cc1	-	H37Rv	-	-	MIC bound	BACTEC	>12.5 µg/mL
CN(C)c1ccc(/C=c2\s/c(=C/C(=O)c3ccccc3)[nH]c2=O)cc1	-	Clinical isolate	-	-	MIC	visual reading	>64 µg/mL
COc1cc2oc(-c3ccc(O)cc3O)c(CC=C(C)C)c(=O)c2c(O)c1/C=C/C(C)C	-	TAC-R	-	-	MIC	-	>12.5 µg/mL
CC(C)(O/N=C(/C(=O)N[C@@H]1C(=O)N2C(C(=O)[O-])=C(C[n+]3ccccc3)CS[C@H]12)c1csc(N)n1)C(=O)O	-	H37Ra	-	-	MIC	-	128 µg/mL
O=C(NNC(=O)c1ccncc1)Nc1ccc(Br)c(C(F)(F)F)c1	-	My 331/88	-	21 d	MIC100	broth dilution	8 µM
COC1(c2nc3ccc(C)cc3s2)C=CC(=NS(=O)(=O)c2ccc(C)cc2)C=C1	6.25 µg/mL	H37Rv	-	-	inhibition	-	30%
NC(=O)Nc1c([N+](=O)[O-])cc(C(F)(F)F)cc1[N+](=O)[O-]	12.5 µg/mL	H37Rv	-	-	inhibition	BACTEC	19%
CC(=O)Nn1cnc2c(Nc3ccc(C#N)cc3)ncnc2c1=N	-	H37Rv	-	-	EC90	-	>100 µg/mL
O=C(/C=C/c1ccc(F)cc1)c1ccncc1	-	H37Rv	-	-	EC90	resazurin	≥50 µg/mL
Cc1ccc(-c2csc(NC(c3cccc(Cl)c3)C3CCCCC3=O)n2)cc1	-	H37Rv	-	-	MIC	broth dilution / agar / visual reading	50 µg/mL
O=C(NCc1ccc(Br)cc1)c1ccc(Br)cc1O	-	My 331/88	-	-	MIC	-	16 µg/mL
CC1(C)S[C@@H]2[C@H](NC(=O)[C@H](N)c3ccc(O)cc3)C(=O)N2[C@H]1C(=O)O	-	H37Ra	-	-	MIC	-	256 µg/mL
COc1ccc(-c2csc(NC(c3ccc(N(C)C)cc3)C3CCCCC3=O)n2)cc1	-	H37Rv	-	-	MIC	broth dilution / agar / visual reading	50 µg/mL
O=C(O)c1ccc(N=Cc2ccc(F)cc2)cc1O	-	H37Rv	-	-	MIC90	resazurin	<6.25 µg/mL
COc1ccc(/C=C2/S/C(=N/N=C/c3ccccc3O)NC2=O)cc1	-	H37Rv	-	-	MIC	visual reading	1 µg/mL
COC(=O)C1=CC(=O)N2C(=Nc3cccc4cccc2c34)S1	12.5 µg/mL	H37Rv	-	-	inhibition	BACTEC	-36%
CC(=O)OC1(c2ccccc2)C=CC(=O)C=C1	-	H37Rv	-	-	EC50	-	>6.25 µg/mL
CCOc1cc(C(=O)NCCN(CC)CC)nc2cc(C)ccc12	6.25 µg/mL	H37Rv	-	-	inhibition	resazurin	28%
CC(C)c1c(O)ccc2c1CCC1C(C)(C)CCC[C@]21C	-	H37Rv	-	-	MIC	-	16 µg/mL
Cc1cc(=O)c(C)c2sc3ccccc3nc1-2	-	H37Rv	-	-	MIC	-	3.13 µg/mL
O=C(/C=C/c1ccccc1)n1cnc2ccc([N+](=O)[O-])cc21	-	H37Rv	-	-	MIC100	resazurin / visual reading	100 µg/mL
CCOC(=O)c1nc(C)oc1C(=O)OCC	12.5 µg/mL	H37Rv	-	-	inhibition	BACTEC	-2%
CO[C@H]1/C=C/O[C@@]2(C)Oc3c(C)c(O)c4c(O)c(c(/C=N/N5CCN(C)CC5)c(O)c4c3C2=O)NC(=O)/C(C)=C\C=C\[C@H](C)[C@H](O)[C@@H](C)[C@@H](O)[C@@H](C)[C@H](OC(C)=O)[C@@H]1C	-	H37Rv	-	-	MIC	visual reading	0.078 µg/mL
COc1ccc(-c2nc3ccccc3n2C(=O)/C=C/c2ccccc2)cc1	-	H37Rv	-	-	MIC100	resazurin / visual reading	3.12 µg/mL
O=C1OC(c2ccccc2)=N/C1=C\c1ccc(F)cc1	-	H37Rv	-	-	MIC90	resazurin	<6.25 µg/mL
CCCCCCc1ccc(NC(=O)NNC(=O)c2ccncc2)cc1	-	My 331/88	-	14 d	MIC100	broth dilution	32 µM
N=c1c2ncnc(Nc3ccc(F)cc3)c2ncn1NC(=O)c1ccncc1	-	H37Rv	-	-	EC90	-	3.58 µg/mL
O=C(CC1Sc2ccccc2NC1=O)NNc1ccc(F)cc1	12.5 µg/mL	H37Rv	-	-	inhibition	BACTEC	16%
O=[N+]([O-])c1ccc(F)c(N=Cc2ccc([N+](=O)[O-])o2)c1	-	H37Rv	-	-	MIC	visual reading	8 µg/mL
O=C(NNC1=NS(=O)(=O)c2ccccc2N1c1ccccc1)c1ccncc1	-	H37Rv (ATCC 27294)	-	-	MIC	-	>16 µg/mL
O=C(NNC(=O)c1ccncc1)Nc1ccc(C(F)(F)F)cc1	-	My 331/88	-	14 d	MIC100	broth dilution	62.5 µM
O=C(O)c1ccc(N2C(=O)CS[N+]23C(=O)Nc2ccc(F)cc23)cc1O	-	H37Rv	-	-	MIC90	resazurin	<6.25 µg/mL
Cc1ccc(NC(=O)c2cc(S(=O)(=O)N3CCNNC3=O)c(S)cc2Cl)cc1	-	H37Rv	-	-	MIC bound	resazurin	>6.25 µg/mL
CN(C)CCCN1c2ccccc2Sc2ccccc21	-	-	-	-	MIC	-	>25 µg/mL
O=C(O)c1ccc(N2C(=O)C(Cl)C2c2ccc(F)cc2)cc1O	-	H37Rv	-	-	MIC90	resazurin	<6.25 µg/mL
N=C1C=CC(O)(c2nc3ccccc3s2)C(SCC(NC(=O)CCC(N)C(=O)O)C(=O)NCC(=O)O)C1	-	H37Rv	-	-	MIC	-	>6.25 µg/mL
CC1COc2c(N3CCN(C)CC3)c(F)cc3c(=O)c(C(=O)O)cn1c23	-	35820	Streptomycin-resistant	-	MIC80	broth dilution	0.7 µM
CC1(C)CC(=O)C(C=Nc2ccccc2O)=C(O)C1	-	H37Rv	-	-	MIC	visual reading	2.5 µg/mL
CC(C)(C)SC(=S)SCC(=O)c1cc2ccccc2o1	-	H37Rv	-	-	MIC bound	BACTEC	>12.5 µg/mL
Fc1cc(Br)ccc1Nc1nnc(-c2ccncc2)o1	-	My 331/88	-	14 d	MIC100	broth dilution	>125 µM
CN1C(NNC(=O)c2cnccn2)=NS(=O)(=O)c2ccccc21	-	Clinical isolates drug-resistant	-	-	MIC	-	0.5–2 µg/mL
COc1ccc(NC(=O)NNC(=O)c2ccncc2)cc1	-	My 331/88	-	21 d	MIC100	broth dilution	62.5 µM
CN1C(NNC(=O)c2ccncc2)=NS(=O)(=O)c2ccccc21	-	Clinical isolates drug-sensitive	-	-	MIC	-	>16 µg/mL
O=[N+]([O-])c1cn2c(n1)OC[C@@H](OCc1ccc(OC(F)(F)F)cc1)C2	-	Drug-susceptible	-	-	MIC	-	0.06 µg/mL
C[C@H](O)[C@H]1C(=O)N2C(C(=O)O)=C(S[C@@H]3CN[C@H](C(=O)N(C)C)C3)[C@H](C)[C@H]12	-	H37Ra	-	-	MIC	-	8 µg/mL
CC(=O)NC1C(=O)OC(C(O)CO)C1O	12.5 µg/mL	H37Rv	-	-	inhibition	BACTEC	0%
CC(CN1c2ccccc2Sc2ccccc21)N(C)C	-	-	-	-	MIC	-	20 µg/mL
COc1ccc(CNC(=S)c2ccccc2O)cc1	-	My 331/88	-	-	MIC	-	4 µg/mL
C[C@@H](O)[C@H]1C(=O)N2C(C(=O)O)=C(S[C@@H]3CCCN3)S[C@H]12	-	H37Rv	-	-	MIC	visual reading	0.5 µg/mL
NNC(=O)C(=O)NNc1ccccc1	12.5 µg/mL	H37Rv	-	-	inhibition	BACTEC	63%
O=C(NNC(=O)c1ccncc1)Nc1ccc(F)c(C(F)(F)F)c1	-	My 331/88	-	21 d	MIC100	broth dilution	32 µM
CC(=O)O[C@H]1C[C@@]2(C)[C@@H](C[C@@H](O)[C@H]3[C@@]4(C)CC[C@@H](O)[C@@H](C)[C@@H]4CC[C@@]32C)/C1=C(\CCC=C(C)C)C(=O)O	-	H37Rv	-	-	MIC99	GFP	0.3 µM
CC(O)CN1CCN(CC(C)O)C(C)C1	12.8 µg/mL	H37Rv	-	-	inhibition	BACTEC	14%
CCN1C(NNC(=O)c2ccncc2)=NS(=O)(=O)c2ccccc21	-	H37Rv (ATCC 27294)	-	-	MIC	-	>16 µg/mL
COc1cc(C(=O)NCC(=O)NN=C(C)C)cc(OC)c1OC	-	H37Rv	-	-	MIC bound	BACTEC	>12.5 µg/mL
O=C1CCCCC1C(Nc1nc(-c2ccc(O)cc2)cs1)c1cccc(Cl)c1	-	H37Rv	-	-	MIC	broth dilution / agar / visual reading	50 µg/mL
O=C1C=CC(O)(c2nc3ccccc3[nH]2)C=C1	-	H37Rv	-	-	EC50	-	<6.25 µg/mL
O=C1Oc2cc3c(c4cccc1c24)O[C@@H](c1ccccc1)C(c1ccccc1)[C@H]3c1ccc(Cl)cc1	12.5 µg/mL	H37Rv	-	-	inhibition	BACTEC	13%
O=C(/C=C/c1ccccc1)n1c(-c2ccc(Cl)c(Cl)c2)nc2ccccc21	-	H37Rv	-	-	MIC100	resazurin / visual reading	25 µg/mL
O=C1C=CC(O)(c2cc3ccccc3o2)C=C1	-	H37Rv	-	-	EC50	-	<6.25 µg/mL
O=C(/C=C/c1ccc(Cl)cc1Cl)c1ccncc1	-	H37Rv	-	-	EC90	resazurin	≥50 µg/mL
N#CCc1nc2ccccc2c(=O)[nH]1	-	H37Rv	-	-	MIC bound	BACTEC	≤12.5 µg/mL
Oc1ccccc1C(=S)NCc1ccc(Cl)c(Cl)c1	-	My 331/88	-	-	MIC	-	0.49 µg/mL
CCCCCN(C)Cc1cc(C(=O)OCC)ccc1N1C(=O)c2[nH]c3c(NC)cc(F)cc3c(=O)c2C1=O	-	H37Rv	-	-	MIC	resazurin	4 µg/mL
C[n+]1c(-c2ccc(/C=N/NC(=O)c3cncc(C(=O)N/N=C/c4ccc(-c5cn6ccccc6[n+]5C)cc4)c3)cc2)cn2ccccc21.Cc1ccc(S(=O)(=O)[O-])cc1.Cc1ccc(S(=O)(=O)[O-])cc1	12.5 µg/mL	H37Rv	-	-	inhibition	BACTEC	36%
Cc1ccc(O)c(C(=O)NCc2cccc([N+](=O)[O-])c2)c1	-	My 331/88	-	-	MIC	-	62.5 µg/mL
CC1=C(C(=O)NCCNC(=O)C2=C(C)OCC2)CCO1	-	H37Rv	-	-	MIC bound	resazurin	>6.25 µg/mL
CCN1C(NNC(=O)c2cnccn2)=NS(=O)(=O)c2ccccc21	-	Clinical isolates drug-resistant	-	-	MIC	-	8–16 µg/mL
CN1CCCCC1CCN1c2ccccc2Sc2ccc(S(C)=O)cc21	-	21 isolates (multidrug resistance)	-	-	MIC	-	2 µg/mL
COc1cccc(Nc2nc(NS(=O)(=O)c3cc(C)c(Cl)cc3S)n[nH]2)c1	-	H37Rv	-	-	MIC bound	BACTEC	>12.5 µg/mL
Cc1nc2ccccc2n1C(=O)/C=C/c1ccccc1	-	H37Rv	-	-	MIC100	resazurin / visual reading	3.12 µg/mL
O=C1C=CC(O)(c2ccc3ccccc3c2)C=C1	-	H37Rv	-	-	EC50	-	>6.25 µg/mL
O=[N+]([O-])c1ccc(O)c(C=Nc2cccc3cccnc23)c1	-	H37Rv	-	-	MIC	visual reading	4 µg/mL
CO[C@H]1/C=C/O[C@@]2(C)Oc3c(C)c(O)c4c(O)c(c(/C=N/N5CCN(C)CC5)c(O)c4c3C2=O)NC(=O)/C(C)=C\C=C\[C@H](C)[C@H](O)[C@@H](C)[C@@H](O)[C@@H](C)[C@H](OC(C)=O)[C@@H]1C	-	ATCC 27294	-	-	MIC80	broth dilution	0.04 µM
CN1C(NNC(=O)c2cccnc2)=NS(=O)(=O)c2ccccc21	-	H37Rv (ATCC 27294)	-	-	MIC	-	>16 µg/mL
CCOC(=O)c1cc(=O)c2c(ccc3cc(OC)ccc32)[nH]1	12.5 µg/mL	H37Rv	-	-	inhibition	BACTEC	14%
COc1ccc(/C=C/C(=O)c2ccncc2)cc1	-	H37Rv	-	-	EC90	resazurin	≥50 µg/mL
CO[C@H]1/C=C/O[C@@]2(C)Oc3c(C)c(O)c4c(O)c(c(/C=N/N5CCN(C/C=C/c6ccccc6)CC5)c(O)c4c3C2=O)NC(=O)/C(C)=C\C=C\[C@H](C)[C@H](O)[C@@H](C)[C@@H](O)[C@@H](C)[C@H](OC(C)=O)[C@@H]1C	-	Kurono	-	-	MIC	-	0.1 µg/mL
N#Cc1ccc(Nc2ncnc3c(=N)n(NC(=O)c4ccncc4)cnc23)cc1	-	H37Rv	-	-	EC90	-	>100 µg/mL
COc1ccc(-c2csc(NC(c3ccccc3Cl)C3CCCCC3=O)n2)cc1	-	H37Rv	-	-	MIC	broth dilution / agar / visual reading	50 µg/mL
NNC(=S)Nc1ccc(F)cc1	-	H37Rv	-	-	MIC90	resazurin	<6.25 µg/mL
CN[C@@H]1[C@H](O[C@H]2[C@H](O[C@H]3[C@H](O)[C@@H](O)[C@H](N=C(N)N)[C@@H](O)[C@@H]3N=C(N)N)O[C@@H](C)[C@]2(O)C=O)O[C@@H](CO)[C@H](O)[C@H]1O	-	19000	Rifampicin-resistant	-	MIC80	broth dilution	0.3 µM